Data from US20250283886.

Tests used:
FFPFFP{LYSN3}NH2 = biological target: T1, FFPFFP{LYSN3}NH2
T1 chain: FFPFFPX

YYMYYM{LYSN3}NH2 = biological target: T2, YYMYYM{LYSN3}NH2
T2 chain: YYMYYMX

AAPAAP{LYSN3}NH2 = biological target: T3, AAPAAP{LYSN3}NH2
T3 chain: AAPAAPX

YYPYYP{LYSN3}NH2 = biological target: T4, YYPYYP{LYSN3}NH2
T4 chain: YYPYYPX

YPYPYP{LYSN3}NH2 = biological target: T5, YPYPYP{LYSN3}NH2
T5 chain: YPYPYPX

KKPKKP{LYSN3}NH2 = biological target: T6, KKPKKP{LYSN3}NH2
T6 chain: KKPKKPX

RRPRRP{LYSN3}NH2 = biological target: T7, RRPRRP{LYSN3}NH2
T7 chain: RRPRRPX

B1: Bacillus stearothermophilus Peptidase M28 (protein)
chain: MAKLDETLTMLKALTDAKGVPGNEREARDVMKTYIAPYADEVTTDGLGSLIAKKEGKSGGPKVMIAGHLDEVGFMVTQIDDKGFIRFQTLGGWWSQVMLAQRVTIVTKKGDITGVIGSKPPHILPSEARKKPVEIKDMFIDIGATSREEAMEWGVRPGDMIVPYFEFTVLNNEKMLLAKAWDNRIGCAVAIDVLKQLKGVDHPNTVYGVGTVQEEVGLRGARTAAQFIQPDIAFAVDVGIAGDTPGVSEKEAMGKLGAGPHIVLYDATMVSHRGLREFVIEVAEELNIPHHFDAMPGVGTDAGAIHLTGIGVPSLTIAIPTRYIHSHAAILHRDDYENTVKLLVEVIKRLDADKVKQLTFDE
HPLC Assay Conv; 1 mM Peptide, 1 uM Enzyme, 37 C/1 hr (FFPFFP{LYSN3}NH2): 30% | HPLC Assay Conv; 1 mM Peptide, 1 uM Enzyme, 37 C/1 hr (YYMYYM{LYSN3}NH2): >50% | HPLC Assay Conv; 1 mM Peptide, 1 uM Enzyme, 37 C/1 hr (AAPAAP{LYSN3}NH2): 100% | HPLC Assay Conv; 1 mM Peptide, 1 uM Enzyme, 37 C/1 hr (YYPYYP{LYSN3}NH2): 10%

B2: T. aquaticus Aminopeptidase T (protein)
chain: MDAFTENLNKLAELAIRVGLNLEEGQEIVATAPIEAVDFVRLLAEKAYENGASLFTVLYGDNLIARKRLALVPEAHLDRAPAWLYEGMAKAFHEGAARLAVSGNDPKALEGLPPERVGRAQQAQSRAYRPTLSAITEFVTNWTIVPFAHPGWAKAVFPGLPEEEAVQRLWQAIFQATRVDQEDPVAAWEAHNRVLHAKVAFLNEKRFHALHFQGPGTDLTVGLAEGHLWQGGATPTKKGRLCNPNLPTEEVFTAPHRERVEGVVRASRPLALSGQLVEGLWARFEGGVAVEVGAEKGEEVLKKLLDTDEGARRLGEVALVPADNPIAKTGLVFFDTLFDENAASHIAFGQAYAENLEGRPSGEEFRRRGGNESMVHVDWMIGSEEVDVDGLLEDGTRVPLMRRGRWVI
HPLC Assay Conv; 1 mM Peptide, 1 uM Enzyme, 37 C/1 hr (FFPFFP{LYSN3}NH2): 60% | HPLC Assay Conv; 1 mM Peptide, 1 uM Enzyme, 37 C/1 hr (YYMYYM{LYSN3}NH2): 85% | HPLC Assay Conv; 1 mM Peptide, 1 uM Enzyme, 37 C/1 hr (AAPAAP{LYSN3}NH2): >90% | HPLC Assay Conv; 1 mM Peptide, 1 uM Enzyme, 37 C/1 hr (YYPYYP{LYSN3}NH2): 30%

B3: Cy3B-Q24-pAzF-yPIP (protein)
chain: MTQQEYQNRRQALLAKMAPGSAAIIFAAPEATRSADSEYPYRQNSDFSYLTGFNEPEAVLILVKSDETHNHSVLFNRIRDLTAEIWFGRRLGQEAAPTKLAVDRALPFDEINEQLYLLLNRLDVIYHAQGQYAYADNIVFAALEKLRHGFRKNLRAPATLTDWRPWLHEMRLFKSAEEIAVLRRAGEISALAHTRAMEKCRPGMFEYQLEGEILHEFTRHGARYPAYNTIVGGGENGCILHYTENECELRDGDLVLIDAGCEYRGYAGDITRTFPVNGKFTPAQRAVYDIVLAAINKSLTLFRPGTSIREVTEEVVRIMVVGLVELGILKGDIEQLIAEQAHRPFFMHGLSHWLGMDVHDVGDYGSSDRGRILEPGMVLTVEPGLYIAPDADVPPQYRGIGIRIEDDIVITATGNENLTASVVKDPDDIEALMALNHAGENLYFQE
HPLC Assay Conv; 1 mM Peptide, 7 uM Enzyme, 37 C/0.5 hr (YPYPYP{LYSN3}NH2): 100%

B4: Vibrio anguillarum Aminopeptidase (protein)
chain: MEEKVWISIGGDATQTALRSGAQSLLPENLINQTSVWVGQVPVSELATLSHEMHENHQRCGGYMVHPSAQSAMSVSAMPLNLNAFSAPEITQQTTVNAWLPSVSAQQITSTITTLTQFKNRFYTTSTGAQASNWIADHWRSLSASLPASKVEQITHSGYNQKSVMLTITGSEKPDEWVVIGGHLDSTLGSRTNESSIAPGADDDASGIAGVTEIIRLLSEQNFRPKRSIAFMAYAAEEVGLRGSQDLANRFKAEGKKVMSVMQLDMTNYQGSREDIVFITDYTDSNFTQYLTQLLDEYLPSLTYGFDTCGYACSDHASWHAVGYPAAMPFESKFNDYNPNIHSPQDTLQNSDPTGFHAVKFTKLGLAYVVEMGNASTPPTPSNQLKNGVPVNGLSASRNSKTWYQFELQEAGNLSIVLSGGSGDADLYVKYQTDADLQQYDCRPYRSGNNETCQFSNAQPGRYSILLHGYNNYSNASLVANAQ
HPLC Assay Conv; 1 mM peptide, 2 uM enzyme, 30 C/1 hr (KKPKKP{LYSN3}NH2): <5% | HPLC Assay Conv; 1 mM peptide, 2 uM enzyme, 30 C/1 hr (AAPAAP{LYSN3}NH2): 50% | HPLC Assay Conv; 1 mM peptide, 2 uM enzyme, 30 C/1 hr (RRPRRP{LYSN3}NH2): >90%
